Measured values from several laboratories, pooled; numbers as filed in NIAID ChemDB.

Common to all: whole-cell or culture tests; agent: Herpes simplex virus

ECn: concentration that inhibits the pathogen or its effect by n%. Inhibition is in % at the dose shown (toxicity tests: loss of growth or viability). Lines come from different laboratories, so protocols vary. Blank or dashed fields: not listed here.

C[C@H]1O[C@@H](Oc2ccccc2)[C@H](O)[C@@H](O)[C@@H]1O ; cells: LLC-MK2 ; read by: plaque count ; endpoint: EC50 ; result: 1000 µM
Nc1c(S(=O)(=O)O)cc2cc(S(=O)(=O)O)cc(O)c2c1O ; cells: Human conjunctiva cells ; read by: cytopathic effect ; endpoint: inhibition ; dose: 10 µg/mL ; result: 0%
O[C@@H]1[C@@H](O)[C@H](Oc2ccc(Cl)cc2)O[C@H](CCl)[C@H]1O ; cells: LLC-MK2 ; read by: plaque count ; endpoint: EC50 ; result: 500 µM
COc1cc(O)c(Cl)cc1NC(=S)Nc1ccc(NC(=O)c2csnn2)cc1 ; endpoint: EC50 ; result: >23 µM
O=S(=O)([O-])c1ccc(NS(=O)(=O)c2ccccc2)c2c(S(=O)(=O)[O-])cccc12 ; cells: Human conjunctiva cells ; read by: cytopathic effect ; endpoint: inhibition ; dose: 50 µg/mL ; result: 0%
Nc1ccn(C[C@@H](CO)OCP(=O)(O)O)c(=O)n1 ; strain: Final clinical isolates ; cells: MRC-5 ; read by: plaque count ; endpoint: EC50 ; result: 8 µM
O=C(Nc1ccc(NC(=S)Nc2ccc(Cl)c(C(F)(F)F)c2)cc1)c1csnn1 ; endpoint: EC50 ; result: 20 µM
C=Cc1cn([C@@H]2O[C@H](CO)[C@@H](O)[C@@H]2O)c(=O)[nH]c1=O ; strain: WT-34 ; endpoint: MIC ; result: 0.32 µg/mL
O=C(Nc1ccc2cc(S(=O)(=O)[O-])cc(S(=O)(=O)[O-])c2c1)c1ccccc1 ; cells: Human conjunctiva cells ; read by: cytopathic effect ; endpoint: inhibition ; dose: 10 µg/mL ; result: 0%
CCN(CC)CC(=O)Nc1ccc(-c2nc3ccc(C(F)(F)F)cc3[nH]2)cc1 ; strain: 1 ; read by: plaque count ; endpoint: EC50 ; result: >24 µM
CCC(NC(=S)Nc1ccc(NC(=O)c2cscn2)cc1)c1cc(C(F)(F)F)cc(C(F)(F)F)c1 ; endpoint: EC50 ; result: 4.1 µM
NCCS(=O)(=O)O ; cells: Human amnion AV3 cells ; read by: cytopathic effect ; endpoint: inhibition ; dose: 5 µg/mL ; result: 0%
O=c1[nH]c(=O)n([C@H]2C[C@H](O)[C@@H](CO)O2)cc1I ; strain: WT-20 ; endpoint: MIC ; result: 32 µg/mL
O=S(=O)([O-])c1ccccc1S(=O)(=O)[O-] ; cells: Human amnion AV3 cells ; read by: cytopathic effect ; endpoint: inhibition ; dose: 50 µg/mL ; result: 0%
Cc1cn([C@@H]2O[C@H](CO)[C@@H](O)[C@@H]2O)c(=O)[nH]c1=O ; strain: WT-34 ; endpoint: MIC ; result: 1 µg/mL

A second listing of 2 rows from above:

compound | strain | cells | read by | endpoint | dose | result
O=c1[nH]c(=O)n([C@H]2C[C@H](O)[C@@H](CO)O2)cc1I | WT-20 | - | - | MIC | - | 32 µg/mL
O=S(=O)([O-])c1ccccc1S(=O)(=O)[O-] | - | Human amnion AV3 cells | cytopathic effect | inhibition | 50 µg/mL | 0%